Measured values from several laboratories, pooled; numbers as filed in NIAID ChemDB.

Common to all: whole-cell or culture tests; agent: Herpes simplex virus 1; read by: plaque count; read-out: EC50

Neighbouring rows are from separate reports. ECn: concentration that inhibits the pathogen or its effect by n%. An empty or dashed field is not shown.

compound,cells,strain,result
COc1ccc(-c2cc(=O)c3c(O)c(OC)c(OC)cc3o2)cc1OC,HeLa,HF,>200 µg/mL
Nc1nc2c(ncn2C[C@]2(CO)C[C@H]2CO)c(=O)[nH]1,BALB/3T3,Tomioka,0.0012 µg/mL
[N-]=[N+]=NC(CBr)c1cn(CCC(CO)CO)c(=O)[nH]c1=O,VERO,KOS (TK+),>67 µM
Cc1cn(COCCO)c(=O)[nH]c1=O,-,-,>100 µM
CCCCCCCC/C=C\CCCCCCCC(=O)OC(COC(=O)CCCCCCCCCCCCCCCCCCCCC)CO[C@@H]1O[C@H](CO)[C@@H](O)[C@H](O)[C@H]1O,VERO,KOS,>50 µg/mL
CC(C)[C@H](N)C(=O)OCC(COC(=O)[C@@H](N)C(C)C)OCn1cnc2c(=O)[nH]c(N)nc21,HFF,-,0.29 µM
CC[C@@H](C(C)C)[C@@H](O)[C@H](O)[C@@H](C)[C@H]1CC[C@H]2[C@@H]3CC(=O)[C@@]4(O)C[C@@H](Br)CC[C@]4(C)[C@H]3CC[C@]12C,VERO,F,17.7 µM
CC/C=C/C/C=C/C/C=C/CCCCCCCC(=O)OC[C@H](CO[C@@H]1O[C@H](CO)[C@@H](O)[C@H](O)[C@H]1O)OC(=O)CCCCCCC/C=C/C/C=C/C/C=C/CC,VERO,KOS,12.5 µg/mL
O=C(Nc1cc(F)ccc1N1CCCCCC1)c1ccncc1,VERO,F,2.82 µM
CC1(C)C=C2[C@H]3CC[C@@H]4[C@@]5(C)CCC(=O)C(C)(C)[C@@H]5CC[C@@]4(C)[C@]3(C)CC[C@@]2(C(=O)O)CC1,VERO,B2006 (TK-),2 µg/mL
CCCCCCCCCCCC(=O)OC[C@H](CO[C@@H]1O[C@H](CO)[C@@H](O)[C@H](O)[C@H]1O)OC(=O)CCCCCCCCCCC,VERO,KOS,23 µg/mL
CC(C)(C)NC(=O)CN(C(=O)[C@H]1CC[C@@]2(C)C3CC=C4C[C@@H](O)CC[C@]4(C)C3CC[C@]12C)c1ccc(Cl)cc1,Vero cells,KOS,16 µM
O=c1[nH]c(=O)n(COCCO)cc1Br,-,-,>100 µM
O=c1[nH]c(=O)n([C@H]2C[C@H](O)[C@@H](CO)O2)cc1I,HELF,VR-3,0.28 µg/mL
CC[C@@H](C(C)C)[C@@H](O)[C@H](O)[C@@H](C)[C@H]1CC[C@H]2[C@@H]3CC(=O)[C@H]4C[C@@H](Br)CC[C@]4(C)[C@H]3CC[C@]12C,VERO,F,53.3 µM
Nc1nc2c(ncn2COCCO)c(=O)[nH]1,HEL,VR-3,0.39 µM
CC(=O)OCCOCn1cc(C(F)(F)F)c(=O)[nH]c1=O,-,-,>100 µM
O=C(NCc1ccc(Cl)cc1)c1cn2c3c(cc(CN4CCOCC4)cc3c1=O)OC(c1cccnc1)C2,HFF,L6183347 ACV resistant,14 µM
N=c1ncn(CC2CCCCC2)c2nc[nH]c12,BSC-1,-,>50 µg/mL
COc1cc(O)c2c(=O)cc(-c3ccc(OC)c(OC)c3)oc2c1,HeLa,HF,140 µg/mL
CC[C@@H](C(C)C)[C@@H](O)[C@H](O)[C@@H](C)[C@H]1CC[C@H]2[C@@H]3CC(=O)[C@H]4C[C@H](O)[C@H](O)C[C@]4(C)[C@H]3CC[C@]12C,VERO,F,41.3 µM
O=C(Nc1cc(F)ccc1N1CCCCC1)c1ccncc1,VERO,F,2.14 µM
Cc1cn([C@@H]2O[C@H](CO)[C@H]2CO)c(=O)[nH]c1=O,HFF,SC16,0.03 µg/mL
Cc1cccc(Cn2cnc(=N)c3[nH]cnc32)c1,BSC-1,-,>50 µg/mL
C=Cc1cn(OCCO)c(=O)[nH]c1=O,VERO,KOS (TK+),>25 µg/mL
Nc1nc(=O)n([C@@H]2O[C@H](CO)[C@@H](O)[C@@H]2F)cc1I,HELF,MP,0.008 µg/mL
Nc1ncnc2c1ncn2[C@@H]1O[C@H](COP(=O)(O)O)[C@@H](O)[C@@H]1O,MEF,E-377,17 µM
CCCCCCCCCCCCCCCCCCCCCC(=O)OC(COC(=O)CCCCCCCCCCCCCCCCC)CO[C@@H]1O[C@H](CO)[C@@H](O)[C@H](O)[C@H]1O,VERO,KOS,>50 µg/mL
Fc1ccc(N2CCCCCC2)c(NC(=S)c2ccncc2)c1,VERO,F,2.21 µM
Cc1nnc2nc3c(nn12)c1ccccc1n3C,BSC-1,-,<60 µg/mL
CCOC(=O)c1cc(C(=O)O)c(=O)n2c1[nH]c1ccccc12,HEF,KOS,7.3 µg/mL
Cc1cc(O)c2c(=O)c3cccc(Cl)c3[nH]c2c1,VERO,KOS,>100 µM
CC(=O)OCCOCn1cc(I)c(=O)[nH]c1=O,-,-,>100 µM
Nc1nc2c(ncn2CC[C@@H](O)CO)c(=O)[nH]1,VERO,C42,2.1 µM
CCCCC/C=C\C/C=C\CCCCCCCC(=O)OCC(CO[C@@H]1O[C@H](CO)[C@@H](O)[C@H](O)[C@H]1O)OC(=O)CCCCCCC/C=C\C/C=C\CCCCC,VERO,KOS,50 µg/mL
Cc1cn([C@@H]2O[C@H](CO)[C@@H](O)[C@@H]2F)c(=O)[nH]c1=O,HELF,VR-3,0.005 µg/mL
CCCCCCCCCCCC(=O)OCC(CO[C@@H]1O[C@H](CO)[C@@H](O)[C@H](O)[C@H]1O)OC(=O)CCCCCCCCCCC,VERO,KOS,<50 µg/mL
Cc1nc(N(C)C(=O)Cc2ccc(-c3ccccn3)cc2)sc1S(N)(=O)=O,HEF,1 (KOS),0.014 µM
O=c1[nH]c(=O)n(COCCO)cc1I,-,-,>100 µM
CC(C)(C)NC(=O)CN(C(=O)[C@H]1CC[C@@]2(C)C3CC=C4C[C@@H](O)CC[C@]4(C)C3CC[C@]12C)c1ccccc1Cl,Vero cells,KOS,12.8 µM
Nc1nc2c(ncn2COC(CO)CO)c(=O)[nH]1,-,KOS,0.05 µM
Nc1nc2c(ncn2COCCO)c(=O)[nH]1,3T6,511,0.05 µg/mL
O=c1[nH]c(=O)n([C@H]2C[C@H](O)[C@@H](CO)O2)cc1/C=C/Br,HELF,CHR-3,0.014 µg/mL
Nc1nc2c(ncn2COCCO)c(=O)[nH]1,VERO,1,6.6 µM
Nc1nc2c(ncn2C[C@H]2CS[C@H](P(=O)(O)O)O2)c(=O)[nH]1,VERO,KOS,32 µg/mL
CCCn1cnc(=N)c2[nH]cnc21,BSC-1,-,>50 µg/mL
CC[C@@H](C(C)C)[C@H](O)[C@@H](O)[C@@H](C)[C@H]1CC[C@H]2[C@@H]3CC(=O)[C@@]4(O)C[C@H](O)[C@H](O)C[C@]4(C)[C@H]3CC[C@]12C,VERO,B2006 (TK-),91.5 µM
O=c1ccn(COCCO)c(=O)[nH]1,-,-,>100 µM
CC(=O)OC[C@H]1[C@H](COC(C)=O)[C@@H](CO)O[C@H]1n1cnc2c(N)ncnc21,MEF,Clinical isolate HL-34,184 µM
Cc1cn([C@@H]2O[C@H](CO)[C@@H](O)[C@@H]2F)c(=O)[nH]c1=O,VERO,RE6,0.51 µM
Cc1cn([C@@H]2C[C@H](CO)[C@@H](O)C2)c(=O)[nH]c1=O,HFF,-,>10 µg/mL
Cn1cc(C(=O)NCc2ccc(Cl)cc2)c(=O)c2cc(CN3CCOCC3)ccc21,HFF,L6191321 ACV resistant,2.6 µM
CCn1cnc(=N)c2[nH]cnc21,BSC-1,-,>50 µg/mL
Nc1nc2c(ncn2C/C=C\CO)c(=O)[nH]1,VERO,SC16,8.6 µM
CC[C@@H](C(C)C)[C@@H](O)[C@H](O)[C@@H](C)[C@H]1CC[C@H]2[C@@H]3CC(=O)[C@H]4C[C@H](O)[C@H](O)C[C@]4(C)[C@H]3CC[C@]12C,VERO,F,41.3 µM
N#Cc1cc(CC(=O)c2ccccc2)c(=O)n2c1sc1ccccc12,HEF,KOS,>40 µg/mL
O=c1[nH]c(=O)n([C@@H]2O[C@H](CO)[C@@H](O)[C@@H]2O)cc1/C=C/Br,HEL,VR-3,0.08 µM
C=C1C[C@@H](OC(=O)c2ccccc2)[C@H]2[C@](C)(C(=O)O)CCC[C@]2(C)C1CC/C(C)=C/CO,HELA229,HF,1.26 µg/mL
CC[C@@H](C(C)C)[C@H](O)[C@@H](O)[C@@H](C)[C@H]1CC[C@H]2[C@@H]3CC(=O)[C@@]4(O)C[C@@H](OC(C)=O)CC[C@]4(C)[C@H]3CC[C@]12C,VERO,B2006 (TK-),173.5 µM
N#Cc1cc(NC(=O)c2ccccc2)c(=O)n2c1[nH]c1ccccc12,HEF,KOS,>8 µg/mL
CC[C@@H](C(C)C)[C@H](O)[C@@H](O)[C@@H](C)[C@H]1CC[C@H]2[C@@H]3CC(=O)[C@H]4C[C@@H](OC(C)=O)CC[C@]4(C)[C@H]3CC[C@]12C,VERO,F,>39.6 µM
Nc1nc2c(ncn2C[C@H]2CC[C@H](P(=O)(O)O)O2)c(=O)[nH]1,VERO,KOS,12.5 µg/mL
CC[C@@H](C(C)C)[C@@H](O)[C@H](O)[C@@H](C)[C@H]1CC[C@H]2[C@@H]3CC(=O)[C@H]4C[C@@H](Br)CC[C@]4(C)[C@H]3CC[C@]12C,VERO,B2006 (TK-),47.6 µM
Cc1nc(N(C)C(=O)Cc2ccc(-c3ccccn3)cc2)sc1S(N)(=O)=O,VERO,KD2,0.04 µM
CC[C@@H](C(C)C)[C@H](O)[C@@H](O)[C@@H](C)[C@H]1CC[C@H]2[C@@H]3CC(=O)[C@H]4C[C@H](O)[C@H](O)C[C@]4(C)[C@H]3CC[C@]12C,VERO,B2006 (TK-),41.8 µM
CC(C)[C@H](N)C(=O)NCC(=O)OCC(COC(=O)CNC(=O)[C@@H](N)C(C)C)OCn1cnc2c(=O)[nH]c(N)nc21,HFF,-,0.25 µM

Repeating the first 9 entries:

compound	cells	strain	result
COc1ccc(-c2cc(=O)c3c(O)c(OC)c(OC)cc3o2)cc1OC	HeLa	HF	>200 µg/mL
Nc1nc2c(ncn2C[C@]2(CO)C[C@H]2CO)c(=O)[nH]1	BALB/3T3	Tomioka	0.0012 µg/mL
[N-]=[N+]=NC(CBr)c1cn(CCC(CO)CO)c(=O)[nH]c1=O	VERO	KOS (TK+)	>67 µM
Cc1cn(COCCO)c(=O)[nH]c1=O	-	-	>100 µM
CCCCCCCC/C=C\CCCCCCCC(=O)OC(COC(=O)CCCCCCCCCCCCCCCCCCCCC)CO[C@@H]1O[C@H](CO)[C@@H](O)[C@H](O)[C@H]1O	VERO	KOS	>50 µg/mL
CC(C)[C@H](N)C(=O)OCC(COC(=O)[C@@H](N)C(C)C)OCn1cnc2c(=O)[nH]c(N)nc21	HFF	-	0.29 µM
CC[C@@H](C(C)C)[C@@H](O)[C@H](O)[C@@H](C)[C@H]1CC[C@H]2[C@@H]3CC(=O)[C@@]4(O)C[C@@H](Br)CC[C@]4(C)[C@H]3CC[C@]12C	VERO	F	17.7 µM
CC/C=C/C/C=C/C/C=C/CCCCCCCC(=O)OC[C@H](CO[C@@H]1O[C@H](CO)[C@@H](O)[C@H](O)[C@H]1O)OC(=O)CCCCCCC/C=C/C/C=C/C/C=C/CC	VERO	KOS	12.5 µg/mL
O=C(Nc1cc(F)ccc1N1CCCCCC1)c1ccncc1	VERO	F	2.82 µM